# Biological target: T1, brain AChE (Gallus gallus, UniProt P36196)
# T1 sequence (P36196 20-767): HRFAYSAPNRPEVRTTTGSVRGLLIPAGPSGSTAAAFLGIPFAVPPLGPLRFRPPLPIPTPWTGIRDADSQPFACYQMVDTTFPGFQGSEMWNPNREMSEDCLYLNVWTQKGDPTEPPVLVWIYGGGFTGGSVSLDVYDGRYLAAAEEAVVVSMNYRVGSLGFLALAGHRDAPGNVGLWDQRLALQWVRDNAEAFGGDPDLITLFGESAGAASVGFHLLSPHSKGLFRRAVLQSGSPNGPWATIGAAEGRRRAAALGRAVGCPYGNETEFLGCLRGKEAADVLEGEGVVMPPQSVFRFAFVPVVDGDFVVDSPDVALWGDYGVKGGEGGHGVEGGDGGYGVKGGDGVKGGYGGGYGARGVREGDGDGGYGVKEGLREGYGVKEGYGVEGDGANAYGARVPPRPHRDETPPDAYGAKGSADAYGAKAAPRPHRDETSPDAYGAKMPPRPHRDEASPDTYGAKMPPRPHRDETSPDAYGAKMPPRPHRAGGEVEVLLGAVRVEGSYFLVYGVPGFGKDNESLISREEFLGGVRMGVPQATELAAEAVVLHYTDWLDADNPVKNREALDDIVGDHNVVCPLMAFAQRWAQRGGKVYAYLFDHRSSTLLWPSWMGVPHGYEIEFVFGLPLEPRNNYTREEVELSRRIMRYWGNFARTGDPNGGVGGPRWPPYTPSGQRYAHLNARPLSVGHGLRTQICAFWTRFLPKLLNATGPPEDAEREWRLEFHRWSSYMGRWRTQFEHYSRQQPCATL
# Test: biochemical
compound,measurement,value
"COP(=O)(OC)Oc1ccc([N+](=O)[O-])cc1 [methyl-paraoxon, dimethyl-4-nitrophenyl-phosphate]",IC50,25.7 ± 1.76 nM
same,Kd,600 ± 130 nM

# From PMC5031402, “Evaluation of a Brain Acetylcholinesterase Extraction Method and Kinetic Constants after Methyl-Paraoxon Inhibition in Three Brazilian Fish Species” (PLoS ONE, 2016)
